Results of unrelated studies side by side (data: NIAID ChemDB).

All rows: tests in culture; species: Cytomegalovirus

ECn: concentration that inhibits the pathogen or its effect by n%.

COc1ccc2c(c1)OC1(C=C2)N(C)c2ccc(Cl)cc2C1(C)C ; read by: plaque count ; cells: HEL ; measure: EC50 ; strain: DAVIS ; result: 7 µM
Nc1nc(N)c2ncn(C[C@H](CO)OCP(=O)(O)O)c2n1 ; read by: cytopathic effect ; cells: HEL ; measure: EC50 ; strain: AD169 ; result: 151 µM
Nc1ncnc2c1ncn2C[C@@H](CO)OCP(=O)(O)O ; read by: cytopathic effect ; cells: HEL ; measure: EC50 ; strain: DAVIS ; result: 1 µg/mL
CCCCCCCn1cc2cc(CCCCCC)oc2nc1=O ; read by: cytopathic effect ; cells: HEL ; measure: EC50 ; strain: DAVIS ; result: 20 µM
O=c1[nH]c(=O)n([C@H]2C[C@H](O)[C@@H](CO)O2)cc1I ; measure: MIC ; strain: TOWNE ; result: 45 µg/mL
Cc1cn([C@@H]2O[C@H](CO)[C@@H](O)[C@@H]2F)c(=O)[nH]c1=O ; read by: plaque count ; cells: HEL ; measure: EC50 ; strain: AD169 ; result: 0.7 µg/mL
CC(C)(C)[Si](C)(C)OC[C@H]1O[C@@H](n2ccc(=O)[nH]c2=O)[C@H](O[Si](C)(C)C(C)(C)C)[C@]12O[C@@H]2CO ; read by: plaque count ; cells: MRC-5 ; measure: EC50 ; result: >5 µM
Cc1cn([C@H]2C/C(=N\O)[C@@H](CO)O2)c(=O)[nH]c1=O ; read by: cytopathic effect ; cells: HEL ; measure: EC50 ; strain: AD169 ; result: >200 µg/mL
Nc1ncnc2c1ncn2OCCOCP(=O)(O)O ; read by: plaque count ; cells: MRC-5 ; measure: EC50 ; strain: AD169 ; result: >350 µg/mL
CC1(C)[C@@H](CO)CC[C@@]1(C)Cn1cnc2c(=O)[nH]cnc21 ; read by: cytopathic effect ; cells: HEL ; measure: EC50 ; strain: DAVIS ; result: >50 µg/mL
CC(C)C[C@H](NC(=O)n1nnc2ccccc21)C(=O)NC1CCCC1 ; read by: plaque count ; cells: HEL ; measure: EC50 ; strain: DAVIS ; result: >80 µg/mL
Nc1ncnc2c1ncn2C[C@@H](CO)OCP(=O)(O)O ; measure: MIC ; result: 0.1 µg/mL
CC(C)Nc1nc2cc(Cl)c(Cl)cc2n1[C@H]1O[C@@H](CO)[C@H](O)[C@@H]1O ; read by: plaque count ; measure: EC50 ; strain: AD169 ; result: 0.1 µM
O=c1[nH]c(=O)n([C@H]2C[C@H](O)[C@@H](CO)O2)cc1/C=C/Br ; read by: cytopathic effect ; cells: HEL ; measure: EC50 ; strain: AD169 ; result: 200 µg/mL
CC1(C)[C@@H](CO)CC[C@@]1(C)Cn1nnc2c(N)ncnc21 ; read by: cytopathic effect ; cells: HEL ; measure: EC50 ; strain: DAVIS ; result: >50 µg/mL
Nc1nc(N)c2ncn(C[C@@H](CO)OCP(=O)(O)O)c2n1 ; read by: cytopathic effect ; cells: HEL ; measure: EC50 ; strain: AD169 ; result: 7.8 µM
CC1(C)[C@@H](CO)CC[C@@]1(C)Cn1nnc2c(Cl)ncnc21 ; read by: cytopathic effect ; cells: HEL ; measure: EC50 ; strain: AD169 ; result: >50 µg/mL
CCC(C)C1NC(=O)N(CC2CCCCC2)C1=O ; read by: plaque count ; cells: HEL ; measure: EC50 ; strain: AD169 ; result: >20 µg/mL
Nc1nc(=O)n([C@@H]2O[C@H](CO)[C@@H](O)[C@@H]2F)cc1I ; read by: plaque count ; cells: HEL ; measure: EC50 ; strain: AD169 ; result: 0.8 µg/mL
Nc1nc2c(ncn2COCCO)c(=O)[nH]1 ; read by: cytopathic effect ; cells: HEL ; measure: EC50 ; strain: AD169 ; result: 30 µg/mL
Nc1ncc2ncn(C[C@@H](CF)OCP(=O)(O)O)c2n1 ; read by: cytopathic effect ; cells: HEL ; measure: EC50 ; strain: AD169 ; result: >300 µM
Cc1cn([C@H]2C[C@H](O[Si](C)(C)C(C)(C)C)[C@@H](/C=C\C#N)O2)c(=O)[nH]c1=O ; cells: HeLa ; measure: EC50 ; strain: DAVIS ; result: 10–20 µM
CC(C)(C)[Si](C)(C)OC[C@H]1O[C@@H](n2ccc(=O)[nH]c2=O)[C@H](O[Si](C)(C)C(C)(C)C)[C@@]12O[C@H]2C(N)=O ; read by: plaque count ; cells: MRC-5 ; measure: EC50 ; result: >8 µM
CN1c2ccc(Cl)cc2C(C)(C)C12C=Cc1cc([N+](=O)[O-])ccc1O2 ; read by: plaque count ; cells: HEL ; measure: EC50 ; strain: AD169 ; result: >1.8 µM
C=C[C@H](O)C1=C[C@@H](n2cnc3c(N)ncnc32)[C@H](O)[C@@H]1O ; read by: cytopathic effect ; cells: HEL ; measure: EC50 ; strain: DAVIS ; result: >50 µg/mL
Nc1ncnc2c1ncn2[C@@H]1C=C(CO)[C@@H](O)[C@H]1O ; read by: cytopathic effect ; cells: HEL ; measure: EC50 ; strain: AD169 ; result: 0.3 µg/mL
Nc1ccn(C[C@@H](CO)OCP(=O)(O)O)c(=O)n1 ; read by: plaque count ; cells: HEL ; measure: EC50 ; strain: DAVIS ; result: 2.1 µM
C[C@@H](Cn1cnc2c(=O)[nH]c(N)nc21)OCP(=O)(O)O ; read by: cytopathic effect ; cells: HEL ; measure: EC50 ; strain: AD169 ; result: 30 µM
CCCCCCCCCCCCCCCCCCOCCOP(=O)(O)CO[C@H](CO)Cn1ccc(N)nc1=O ; measure: EC50 ; strain: GDGP53 ; result: 0.02 µM
CCCCCCc1cc2cnc(OC)nc2o1 ; read by: cytopathic effect ; cells: HEL ; measure: EC50 ; strain: DAVIS ; result: 4.7 µM
Cc1nc([N+](=O)[O-])c(N2CCCC2)n1Cc1ccc(Cl)cc1 ; read by: cytopathic effect ; cells: HEL ; measure: EC50 ; strain: DAVIS ; result: 2.3 µg/mL
CC(C)C[C@H](NC(=O)n1nnc2ccccc21)C(=O)NCC1CCCCC1 ; read by: plaque count ; cells: HEL ; measure: EC50 ; strain: DAVIS ; result: >80 µg/mL
Nc1nc(Cl)c2ncn(OCCOCP(=O)(O)O)c2n1 ; read by: plaque count ; cells: MRC-5 ; measure: EC50 ; strain: AD169 ; result: 0.62 µg/mL
CC1(C)c2ccccc2N(c2ccccc2)C12C=Nc1c(ccc3ccccc13)O2 ; read by: plaque count ; cells: HEL ; measure: EC50 ; strain: DAVIS ; result: >40.9 µM
Nc1ncnc2c1ncn2OCC(CO)OCP(=O)(O)O ; read by: plaque count ; cells: MRC-5 ; measure: EC50 ; strain: AD169 ; result: >310 µg/mL
Nc1ncnc2c1ncn2C[C@H](CF)OCP(=O)(O)O ; read by: cytopathic effect ; cells: HEL ; measure: EC50 ; strain: AD169 ; result: >300 µM
CCCCCCCCCCc1nccn(COCCO)c1=O ; read by: cytopathic effect ; cells: MRC-5 ; measure: EC50 ; result: >100 µM
CN1c2ccccc2C(C)(C)C12C=Cc1cc([N+](=O)[O-])ccc1O2 ; read by: plaque count ; cells: HEL ; measure: EC50 ; strain: DAVIS ; result: 7.5 µM
O=c1c2ncn(COC(CO)CO)c2nc2[nH]c(-c3ccccc3)cn12 ; read by: plaque count ; cells: HEL ; measure: EC50 ; strain: DAVIS ; result: 7 µg/mL
Nc1nc2c(ncn2[C@H]2CO[C@@H](CO)C2)c(=O)[nH]1 ; read by: cytopathic effect ; cells: HEL ; measure: EC50 ; strain: AD169 ; result: >40 µg/mL
Nc1nc2c(ncn2COC(CO)CO)c(=O)[nH]1 ; read by: cytopathic effect ; cells: HEL ; measure: EC50 ; strain: AD169 ; result: 4 µg/mL
Cc1cc(Sc2ccc(Cl)cc2)c2ncc(CSCCc3ccccc3)n2c1 ; read by: plaque count ; measure: EC50 ; strain: DAVIS ; result: 2 µg/mL
Nc1ncnc2c1ncn2[C@@H]1C=C(CO)[C@@H](O)[C@H]1O ; read by: cytopathic effect ; cells: HEL ; measure: EC50 ; strain: AD169 ; result: 0.3 µg/mL
CCCCCCc1cc2cn(CCCC)c(=O)nc2o1 ; read by: cytopathic effect ; cells: HEL ; measure: EC50 ; strain: AD169 ; result: 19 µM
CCCCCCCCCCc1nccnc1OCCCCO ; read by: cytopathic effect ; cells: MRC-5 ; measure: EC50 ; result: >10 µM
C[C@H](Cn1cnc2c(=O)[nH]c(N)nc21)OCP(=O)(O)O ; read by: cytopathic effect ; cells: HEL ; measure: EC50 ; strain: AD169 ; result: 71 µM
Nc1nc2c(ncn2COC(CO)CO)c(=O)[nH]1 ; measure: EC50 ; result: 1–10 µM
C[C@H](Cn1cnc2c(N)nc(N)nc21)OCP(=O)(O)O ; read by: cytopathic effect ; cells: HEL ; measure: EC50 ; strain: AD169 ; result: >30 µM
Nc1nc2c(ncn2[C@@H]2C[C@H](CO)[C@H]2CO)c(=O)[nH]1 ; measure: EC50 ; result: 1–10 µM
O=C(O)P(=O)(O)O ; cells: MRC-5 ; measure: EC50 ; strain: 192 ; result: 163.8 µM
Cc1nc(N2CCOC[C@@H]2C)nc(-n2ccnc2)c1[N+](=O)[O-] ; read by: plaque count ; measure: EC50 ; result: <0.4 µM
Nc1nc2c(ncn2OCC2COP(=O)(O)CO2)c(=O)[nH]1 ; read by: plaque count ; cells: MRC-5 ; measure: EC50 ; strain: AD169 ; result: 14 µg/mL
Cc1nc(N2CCC[C@H]2COC(C)C)nc(-n2ccnc2)c1[N+](=O)[O-] ; read by: plaque count ; measure: EC50 ; result: <0.6 µM
Nc1nc2c(ncn2C[C@H](CF)OCP(=O)(O)O)c(=O)[nH]1 ; read by: cytopathic effect ; cells: HEL ; measure: EC50 ; strain: AD169 ; result: >300 µM
Nc1nc2c(ncn2CC(CO)OCP(=O)(O)O)c(=O)[nH]1 ; read by: plaque count ; cells: HEL ; measure: EC50 ; strain: DAVIS ; result: 0.2 µg/mL
Nc1ncc2ncn(C[C@@H](CO)OCP(=O)(O)O)c2n1 ; read by: cytopathic effect ; cells: HEL ; measure: EC50 ; strain: AD169 ; result: 122 µM
Nc1ccn(C[C@@H](CO)OCP(=O)(O)O)c(=O)n1 ; measure: MIC ; result: 0.08 µg/mL
O=C(NO)c1ccc(O)c(O)c1 ; read by: plaque count ; measure: EC50 ; result: 20.7 µM
Cc1cn([C@@H]2O[C@H](CO[Si](C)(C)C(C)(C)C)C3(O[C@H]3C(=O)NO)[C@H]2O[Si](C)(C)C(C)(C)C)c(=O)[nH]c1=O ; read by: plaque count ; cells: MRC-5 ; measure: EC50 ; result: 4 µM
CN1c2ccc([N+](=O)[O-])cc2C(C)(C)C12C=Cc1ccccc1O2 ; read by: plaque count ; cells: HEL ; measure: EC50 ; strain: AD169 ; result: >49.8 µM
CC(C)CS[C@@H]1C=C[C@H](n2cnc3c(N)ncnc32)C1 ; read by: cytopathic effect ; cells: HEL ; measure: EC50 ; strain: DAVIS ; result: >20 µg/mL
CC(C)C[C@H](NC(=O)n1nnc2ccccc21)C(=O)NC(c1ccccc1)c1ccccc1 ; read by: plaque count ; cells: HEL ; measure: EC50 ; strain: AD169 ; result: >16 µg/mL
Nc1nc2c(ncn2[C@H]2C=C[C@@H](CO)CC2)c(=O)[nH]1 ; measure: EC50 ; result: 1–10 µM
CCOC(=O)CC1(O)[C@@H](CO[Si](C)(C)C(C)(C)C)O[C@@H](n2ccc(=O)[nH]c2=O)[C@@H]1O[Si](C)(C)C(C)(C)C ; read by: plaque count ; cells: MRC-5 ; measure: EC50 ; result: >2 µM

Repeating the final 4 entries:

{"compound": "CC(C)CS[C@@H]1C=C[C@H](n2cnc3c(N)ncnc32)C1", "read by": "cytopathic effect", "cells": "HEL", "measure": "EC50", "strain": "DAVIS", "result": ">20 µg/mL"}
{"compound": "CC(C)C[C@H](NC(=O)n1nnc2ccccc21)C(=O)NC(c1ccccc1)c1ccccc1", "read by": "plaque count", "cells": "HEL", "measure": "EC50", "strain": "AD169", "result": ">16 µg/mL"}
{"compound": "Nc1nc2c(ncn2[C@H]2C=C[C@@H](CO)CC2)c(=O)[nH]1", "measure": "EC50", "result": "1–10 µM"}
{"compound": "CCOC(=O)CC1(O)[C@@H](CO[Si](C)(C)C(C)(C)C)O[C@@H](n2ccc(=O)[nH]c2=O)[C@@H]1O[Si](C)(C)C(C)(C)C", "read by": "plaque count", "cells": "MRC-5", "measure": "EC50", "result": ">2 µM"}

Neighbouring rows are from separate reports. a–b is a range or a potency band.